A mixed list of measured activities; the numbers were collected in NIAID ChemDB.

Common to all: target-level tests; species: HIV-1; target: Reverse transcriptase; method: nucleotide incorporation / radiometric; endpoint: IC50

ICn is the concentration giving n% inhibition. Lines come from different laboratories, so protocols vary. a–b is a range or a potency band. Blank or dashed fields: not listed here.

SMILES,strain,mutations,value
CCN1c2ncc(CCOc3ccc(/C(C)=C/C(=O)O)c4ccccc34)cc2C(=O)N(C)c2cccnc21,-,RT-K103N Y181C,0.1–1 µM
CCC1(c2cccc(I)c2)Oc2ccccc2-n2cccc2C1=O,WT,-,0.05 µM
CCCCC1C(=O)C=C2N(C1=O)c1ccccc1C2(C)C,RF,-,>100 µM
CC(C)c1c(COC(N)=O)cn(Cc2ccncc2)c1Sc1cc(Cl)cc(Cl)c1,-,-,0.7 µM
CCN1c2ncc(CCOc3cccc4c3CCCN4C(=O)CC(=O)O)cc2C(=O)N(C)c2cccnc21,WT,-,<0.1 µM
NC(=O)OCc1cn(Cc2ccncc2)c(Sc2cc(Cl)cc(Cl)c2)c1C1CCC1,-,RT-Y181I,150 µM
CCC1(c2ccc(COc3ccccc3)cc2)Oc2ccccc2-n2cccc2C1=O,-,RT-Y181I,0.7 µM
CC1(C)C2=CC(=O)C(c3ccccc3)([N+](=O)[O-])C(=O)N2c2ccc(Cl)cc21,RF,-,6 µM
Cc1c(C(C)c2c(F)cccc2F)nc(N2CCOCC2)[nH]c1=O,IIIB,RT-V179D,>20 µM
Cc1c(Cc2c(F)cccc2F)nc(SCc2ccc([N+](=O)[O-])cc2)[nH]c1=O,WT,-,>400 µM
CN(C)c1ccc(-n2nnnc2SCC(=O)Nc2ccccc2Cl)cc1,-,-,<2 µM
Cc1c(Cc2c(F)cccc2F)nc(N(C)C)[nH]c1=O,IIIB,-,0.8 µM
Cc1c(Cc2c(Cl)cccc2Cl)nc(SCc2ccccc2)[nH]c1=O,-,RT-181I,>400 µM
Cc1cn([C@H]2C=C[C@@H](COP(=O)(O)OP(=O)(O)OP(=O)(O)O)O2)c(=O)[nH]c1=O,WT,-,0.19 µM
Cc1c(Cc2c(Cl)cccc2Cl)nc(S(=O)(=O)Cc2ccc([N+](=O)[O-])cc2)[nH]c1=O,-,RT-181I,>400 µM
CCN1c2ncc(CCOc3ccc(CCC(=O)O)c4ccccc34)cc2C(=O)Nc2c(C)ccnc21,-,RT-K103N Y181C,>1 µM
CONC(=O)c1cn(Cc2ccncc2)c(Sc2cc(Cl)cc(Cl)c2)c1C(C)C,-,-,1 µM
CCN1c2ncc(CCOc3ccc4cc(C(=O)O)ccc4c3)cc2C(=O)N(C)c2cccnc21,-,RT-Y188L,>1 µM
CC1(C)C2=CC(=O)C(O)(c3ccccc3)C(=O)N2c2ccc(Cl)cc21,RF,-,4 µM
CCC1(c2cccc(COc3ccccc3)c2)Oc2ccccc2-n2cccc2C1=O,-,RT-Y181I,>100 µM
Cc1cn([C@H]2C=C[C@@H](COP(=O)(O)OP(=O)(O)OP(=O)(O)O)O2)c(=O)[nH]c1=O,-,RT-V106A,0.06 µM
CCN1c2ncc(CCOc3cccc4c3CCCN4CC(=O)O)cc2C(=O)N(C)c2cccnc21,-,RT-V106A,>1 µM
O=C(CSc1nnnn1-c1cccc(Cl)c1Cl)Nc1ccccc1Cl,-,-,<2 µM
Nc1nc2c(ncn2[C@H]2CC[C@@H](COP(=O)(O)OP(=O)(O)OP(=O)(O)O)O2)c(=O)[nH]1,WT,-,0.05 µM
Cc1cc(C)c(-n2nnnc2SCC(=O)Nc2ccc(F)cc2[N+](=O)[O-])c(C)c1,-,-,<2 µM
OCc1cn(Cc2ccncc2)c(Sc2cc(Cl)cc(Cl)c2)c1C1CCC1,-,RT-K103N,43.3 µM
CC(=O)c1ccccc1NC(=O)CSc1nnnn1-c1c(C)cc(C)cc1C,-,-,<2 µM
CCC1(c2cccc(Cl)c2)Oc2ccccc2-n2cccc2C1=O,-,RT-Y188L,0.5 µM
CCOC(=O)c1cn(Cc2ccncc2)c(Sc2cc(Cl)cc(Cl)c2)c1C1CCC1,-,-,1.04 µM
Cc1c(Cc2c(Cl)cccc2Cl)nc(SCc2ccc3c(c2)OCO3)[nH]c1=O,-,RT-K103N,>400 µM
CN(C)c1nc(Cc2c(F)cccc2F)cc(=O)[nH]1,IIIB,RT-K103N,3 µM
CCN1c2ncc(CCOc3ccc(CC(=O)O)c4ccccc34)cc2C(=O)N(C)c2ccc(F)nc21,-,RT-V106A,>1 µM
Cc1cc(C)c(-n2nnnc2SCC(=O)Nc2cccnc2Cl)c(C)c1,-,-,<2 µM
CC[C@H]1C(=O)Nc2ccc(F)cc2N1C(=O)OC(C)C,WT,-,0.011 µM
Nc1nc2c(ncn2[C@H]2CC[C@@H](COP(=O)(O)OP(=O)(O)OP(=O)(O)O)O2)c(=O)[nH]1,-,RT-P225H,0.086 µM
CCC1(c2ccc(COc3ccccc3Cl)cc2)Oc2ccccc2-n2cccc2C1=O,-,RT-K103N,5 µM
Cc1cn([C@H]2C=C[C@@H](COP(=O)(O)OP(=O)(O)OP(=O)(O)O)O2)c(=O)[nH]c1=O,-,RT-T139V,0.14 µM
Cc1cc(C)cc(S(=O)(=O)c2c(C(=O)NNCCO)[nH]c3ccc(Cl)cc23)c1,-,RT-L101I,15 µM
CC1(C)C2=CC(=O)C(c3ccccc3)C(=O)N2c2ccccc21,RF,-,>100 µM
CCN1c2ncc(CCOc3ccc(CCC(=O)O)c4ccccc34)cc2C(=O)N(C)c2ccc(C)nc21,-,RT-V106A,>1 µM
Nc1ccn([C@H]2CC[C@@H](COP(=O)(O)OP(=O)(O)OP(=O)(O)O)O2)c(=O)n1,WT,-,4.78 µM
COc1cc(CSc2nc(Cc3c(F)cccc3F)c(C)c(=O)[nH]2)cc(OC)c1,WT,-,>400 µM
CCC1(c2ccc(COc3cccnc3)cc2)Oc2ccccc2-n2cccc2C1=O,-,RT-L100I,0.3 µM
CCN1c2ncc(CCOc3ccc(C(=O)O)c4ccccc34)cc2C(=O)Nc2c(C)cc(Cl)nc21,-,RT-Y188L,>1 µM

A second listing of 3 rows from above:

SMILES	strain	mutations	value
CCN1c2ncc(CCOc3ccc(C(=O)O)c4ccccc34)cc2C(=O)Nc2c(C)cc(Cl)nc21	-	RT-Y188L	>1 µM
CCOC(=O)c1cn(Cc2ccncc2)c(Sc2cc(Cl)cc(Cl)c2)c1C1CCC1	-	-	1.04 µM
CCN1c2ncc(CCOc3cccc4c3CCCN4CC(=O)O)cc2C(=O)N(C)c2cccnc21	-	RT-V106A	>1 µM